{"source": "patent US6906198B1", "about": "“Antipicornaviral compounds, their preparation and use” (Agouron Pharmaceuticals, Inc., priority 1998, dated 2005)", "key": {"HRV serotype 3": {"system": "HRV serotype 3", "experiment": "Antirhinoviral H1-HeLa cell culture assay (XTT), HRV-3", "format": "cell-based, human rhinovirus", "conditions": "therapeutic index CC50/EC50, HRV (3)", "procedure": "(§1) Antirhinoviral H1-HeLa Cell Culture Assay\n(§2) In this cell protection assay, the ability of compounds to protect cells against HRV infection was measured by the XTT dye reduction method, which is described in Weislow et al., J. Natl. Cancer Inst. 1989, vol. 81, 577-586.\n(§3) H1-HeLa cells were infected with HRV-14 at a multiplicity of infection (m.o.i.) of 0.13 (virus particles/cell) or mock-infected with medium only. Infected or mock-infected cells were resuspended at 8×10^5 cells per mL, and incubated with appropriate concentrations of the compounds to be tested. Two days later, XTT/PMS was added to test plates and the amount of formazan produced was quantified spectrophotometrically at 450/650 nm. The EC50 value was calculated as the concentration of compound that increased the percentage of formazan production in compound-treated, virus-infected cells to 50% of that produced by compound-free, mock-infected cells. The 50% cytotoxic dose (CC50) was calculated as the concentration of compound that decreased the percentage of formazan produced in compound-treated, mock-infected cells to 50% of that produced by compound-free, mock-infected cells. The therapeutic index (TI) was calculated by dividing the CC50 value by the EC50 value.\n(§4) All strains of human rhinovirus (HRV) for use in this assay were purchased from American Type Culture Collection (ATCC), except for HRV serotype-14 (produced from the infectious cDNA clone constructed by Dr. Robert Rueckert, Institute for Molecular Virology, University of Wisconsin, Madison, Wis.). HRV stocks were propagated and viral assays were performed in H1-HeLa cells (ATCC). Cells were grown in minimal essential medium with 10% fetal bovine serum, available from Life Technologies (Gaithersburg, Md.).\n(§5) The compounds were tested against control compounds WIN 51711, WIN 52084, and WIN 54954 (obtained from Sterling-Winthrop Pharmaceuticals), Pirodavir (obtained from Janssen Pharmaceuticals), and Pleconaril (prepared according to the method described in Diana et al., J. Med. Chem 1995, vol. 38, 1355). Antiviral data obtained for the test compounds are shown in Tables 1 and 3, where all data are for HRV serotype-14 unless otherwise noted in parentheses."}, "[1]": {"system": "Echovirus type 11 (EV 11)", "experiment": "Anti-echoviral cell culture assay (XTT), EV 11", "format": "cell-based", "conditions": "therapeutic index CC50/EC50, EV-11", "procedure": "(§6) Anti-Echoviral and -Enteroviral Cell Culture Assays\n(§7) Echovirus type 11 (EV 11) and enterovirus type 70 (EV 70) were purchased from ATCC (Rockville, Md.). Virus stocks were propagated and antiviral assays were performed in MRC-5 cells (ATCC). Cells were grown in minimal essential medium with 10% fetal bovine serum (Life Technologies, Gaithersburg, Md.).\n(§8) The ability of compounds to protect cells against either EV 11 or EV 70 infection was measured by the XTT dye reduction method (Weislow et al., J. Natl. Cancer Inst. 1989, vol. 81, 577-586). MRC-5 cells were infected with EV 11 or EV 70 at an m.o.i. of 0.003 or 0.004, respectively, or mock-infected with medium only. Infected or uninfected cells were added at 1×10^4 cells per well and incubated with appropriate concentrations of compound. Four days later, XTT/PMS was added to test plates, and the amount of formazan produced was quantified spectrophotometrically at 450/650 nm. The EC50 was calculated as the concentration of compound that increased the formazan production in compound-treated, virus-infected cells to 50% of that produced by compound-free, uninfected cells. The 50% cytotoxic dose (CC50) was calculated as the concentration of compound that decreased formazan production in compound-treated, uninfected cells to 50% of that produced in compound-free, uninfected cells. The therapeutic index (TI) was calculated by dividing the CC50 by the EC50.\n(§9) The compounds were tested against control compounds Pirodavir (obtained from Janssen Pharmaceuticals) and Pleconaril (prepared according to Diana et al., J. Med. Chem. 1995, vol. 38, 1355). Antiviral data obtained for the test compounds against strain EV 11 and EV 70 are shown below in Table 5."}, "HRV serotype 30": {"system": "HRV serotype 30", "experiment": "Antirhinoviral H1-HeLa cell culture assay (XTT), HRV-30", "format": "cell-based, human rhinovirus", "conditions": "therapeutic index CC50/EC50, HRV (30)", "procedure": "as §1, §2, §3, §4, §5"}, "HRV serotype 2": {"system": "HRV serotype 2", "experiment": "Antirhinoviral H1-HeLa cell culture assay (XTT), HRV-2", "format": "cell-based, human rhinovirus", "conditions": "therapeutic index CC50/EC50, HRV (2)", "procedure": "as §1, §2, §3, §4, §5"}, "[2]": {"system": "enterovirus type 70 (EV 70)", "experiment": "Anti-enteroviral cell culture assay (XTT), EV 70", "format": "cell-based", "conditions": "therapeutic index CC50/EC50, EV-70", "procedure": "as §6, §7, §8, §9"}, "HRV-14": {"system": "HRV-14", "experiment": "Antirhinoviral H1-HeLa cell culture assay (XTT), HRV-14", "format": "cell-based, human rhinovirus", "conditions": "therapeutic index CC50/EC50, HRV serotype-14", "procedure": "as §1, §2, §3, §4, §5"}, "HRV serotype 16": {"system": "HRV serotype 16", "experiment": "Antirhinoviral H1-HeLa cell culture assay (XTT), HRV-16", "format": "cell-based, human rhinovirus", "conditions": "therapeutic index CC50/EC50, HRV (16)", "procedure": "as §1, §2, §3, §4, §5"}, "HRV serotype 39": {"system": "HRV serotype 39", "experiment": "Antirhinoviral H1-HeLa cell culture assay (XTT), HRV-39", "format": "cell-based, human rhinovirus", "conditions": "therapeutic index CC50/EC50, HRV (39)", "procedure": "as §1, §2, §3, §4, §5"}, "[3]": {"system": "Coxsackievirus type A-21 (CAV-21)", "experiment": "Anticoxsackieviral cell culture assay (XTT), CAV-21", "format": "cell-based", "conditions": "therapeutic index CC50/EC50, CAV-21", "procedure": "Anticoxsackieviral Cell Culture Assay\nCoxsackievirus types A-21 (CAV-21) and B3 (CVB-3) were purchased from American Type Culture Collection (ATCC, Rockville, Md.). Virus stocks were propagated and antiviral assays were performed in H1-HeLa cells (ATCC). Cells were grown in minimal essential medium with 10% fetal bovine serum (Life Technologies, Gaithersburg, Md.).\nThe ability of compounds to protect cells against either CAV-21 or CVB-3 infection was measured by the XTT dye reduction method. This method is described in Weislow et al., J. Natl. Cancer Inst. 1989, vol. 81, 577-586. H1-HeLa cells were infected with CAV-21 or CVB-3 at a multiplicity of infection (m.o.i.) of 0.025 or 0.075, respectively, or mock-infected with medium only. H1-HeLa cells were plated at 4×10^4 cells per well in a 96-well plate and incubated with appropriate concentrations of the test compound. One day (CVB-3) or two days (CAV-21) later, XTT/PMS was added to test plates and the amount of formazan produced was quantified spectrophotometrically at 450/650 nm. The EC50 was calculated as the concentration of compound that increased the formazan production in compound-treated, virus-infected cells to 50% of that produced by compound-free, uninfected cells. The 50% cytotoxic dose (CC50) was calculated as the concentration of compound that decreased formazan production in compound-treated, uninfected cells to 50% of that produced in compound-free, uninfected cells. The therapeutic index (TI) was calculated by dividing the CC50 by the EC50.\nThe compounds were tested against control compounds WIN 54954 (obtained from Sterling-Winthrop Pharmaceuticals), Pirodavir (obtained from Janssen Pharmaceuticals), and Pleconaril (prepared according to Diana et al., J. Med. Chem. 1995, 38, 1355)."}}}
{"smiles": "CCOC(=O)/C=C/[C@H](C[C@@H]1CCNC1=O)NC(=O)[C@@H](CC(=O)[C@@H](NC(=O)c1cc(C)on1)C(C)C)Cc1ccc(F)cc1", "note": "[(B-2), Ethyl-3-{(5′-Methylisoxazole-3′-carbonyl)-L-ValΨ(COCH2)-L-(4-F-Phe)-L-((S)-Pyrrol-Ala)}-E-Propenoate]", "values": [{"measurement": "TI", "setting": "HRV serotype 3", "value": ">5000"}, {"measurement": "TI", "setting": "[1]", "value": ">10000"}, {"measurement": "TI", "setting": "HRV serotype 30", "value": ">2500"}, {"measurement": "TI", "setting": "HRV serotype 2", "value": ">5000"}, {"measurement": "TI", "setting": "[2]", "value": ">33333"}, {"measurement": "TI", "setting": "HRV-14", "value": ">20000"}, {"measurement": "TI", "setting": "HRV serotype 16", "value": ">10000"}, {"measurement": "TI", "setting": "HRV serotype 39", "value": ">2000"}, {"measurement": "TI", "setting": "[3]", "value": ">625"}]}
